Target: Soluble DR1 (sDR1) (human)
Assay: FP competition assay, average of n=2

HA peptide
IC50: 0.072 µM
